Test results published in paper PMC9246220.
The exact form of at least one protein or probe is not confirmed.

Target: S-nitrosylated AphB-His6 (GSNO-treated wild type) (UniProt Q9KT56)
Test: EMSA
Details: 1 mM GSNO pretreatment then DTT (binding restored); 20 nM DNA, 10 mM Tris-HCl pH 7.5, 1 mM EDTA, 50 mM KCl, 100 ug/ml BSA, 10 ug/ml poly dI-dC, 100 mM DTT when indicated; 20 min at 25 C; 5% PAGE in 0.5X TAE; recombinant protein; label: 5'-biotin

CAATAAATTAGGTTTTGGCATGCAATCTGCTCATTAAGAAGGCTTGTGTAGAGTGGCTCA (double strand) [hmpA promoter probe]
binding result: binds
